Measurements reported in PubChem BioAssay AID624099 (ICCB-Longwood, 2012)

Purpose: 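Host factors E2 relies on to silence an HPV18 LCR reporter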 (primary screen)
Cells: human C33A cervical carcinoma cells (HPV-negative) stably expressing BPV1 E2 and an HPV18 LCR luciferase reporter
Reagent: siRNA pool against human genes, 40 nM
Duration: 72 h
Measured: 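Per-well luciferase luminescence, z-scored on each plate against the plate mean and SD with control wells left out, then averaged across three replicate plates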
Reading the numbers: mean z-score and z-score: higher = stronger reporter signal, weaker E2 silencing
Rule for the call: 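Hit if mean z-score reaches 2 and two or more of three replicate z-scores also reach 2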
The whole screen tested about 21,000 reagents; shown is a part drawn at random. Of all reagents, 497 (2.4%) got an active call. 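Higher z means weaker E2 silencing; only reporter increases were scored, and knock-downs that hurt cell survival may mask genuine repressor factors.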 No sequences are given here.

gene | PubChem SID | mean z-score | z-score, replicate A | z-score, replicate B | z-score, replicate C | outcome
OR9K2 (GeneID 441639) | SID134329891 | 0.14 | -0.06 | -0.02 | 0.49 | inactive
TAS2R41 (GeneID 259287) | SID134321686 | 0.18 | 0.02 | 0.27 | 0.26 | inactive
NEIL2 (GeneID 252969) | SID134320342 | -0.59 | -0.82 | -0.49 | -0.48 | inactive
CMTM2 (GeneID 146225) | SID134315245 | -0.16 | 0.18 | 0 | -0.65 | inactive
ACOT12 (GeneID 134526) | SID134313767 | 0.01 | 0.45 | -0.33 | -0.07 | inactive
TIPRL (GeneID 261726) | SID134323122 | 0.37 | 0.72 | 0.07 | 0.31 | inactive
ENPP4 (GeneID 22875) | SID134313983 | -0.19 | 0 | -0.37 | -0.2 | inactive
SUMO3 (GeneID 6612) | SID134323499 | 0.91 | 0.74 | 1.15 | 0.84 | inactive
STAP1 (GeneID 26228) | SID134316684 | -0.85 | -0.63 | -0.87 | -1.07 | inactive
FCER1A (GeneID 2205) | SID134315982 | 0.55 | 0.52 | 0.32 | 0.81 | inactive
P4HB (GeneID 5034) | SID134310027 | -0.31 | -0.45 | 0.22 | -0.7 | inactive
RIMBP3 (GeneID 85376) | SID134326069 | -0.37 | -1.03 | -0.17 | 0.1 | inactive
FMN1 (GeneID 342184) | SID134328532 | -0.34 | -0.23 | -0.1 | -0.68 | inactive
OR6N2 (GeneID 81442) | SID134329898 | 0.28 | 0.9 | 0.06 | -0.11 | inactive
PPM1L (GeneID 151742) | SID134313537 | -0.21 | -0.25 | -0.24 | -0.13 | inactive
LCK (GeneID 3932) | SID56478529 | 0.42 | 0.47 | 0.14 | 0.65 | inactive
ANP32CP (GeneID 23520) | SID134315350 | -0.11 | -0.07 | -0.16 | -0.11 | inactive
SLA2 (GeneID 84174) | SID134323030 | -1.54 | -1.63 | -1.52 | -1.47 | inactive
FAM149B1P1 (GeneID 388181) | SID134328597 | -0.16 | -0.07 | -0.18 | -0.22 | inactive
LOC387897 (retired record) (GeneID 387897) | SID134328397 | -0.12 | 0.16 | 0.02 | -0.54 | inactive
LOC133993 (retired record) (GeneID 133993) | SID134326075 | -0.24 | -0.35 | -0.27 | -0.11 | inactive
SSX2IP (GeneID 117178) | SID134324074 | -0.65 | -0.45 | -0.66 | -0.83 | inactive
SH3KBP1 (GeneID 30011) | SID134318850 | 0.25 | 0.37 | 0.07 | 0.32 | inactive
CRLF1 (GeneID 9244) | SID134312801 | -0.52 | -0.59 | -0.52 | -0.43 | inactive
LRP3 (GeneID 4037) | SID134323387 | 0.77 | 0.62 | 0.88 | 0.81 | inactive
SRSF2 (GeneID 6427) | SID134323481 | 0.02 | -0.14 | 0.21 | 0.01 | inactive
DECR2 (GeneID 26063) | SID134314356 | 0.38 | 0.27 | 0.65 | 0.23 | inactive
ASXL2 (GeneID 55252) | SID134325463 | -0.3 | -0.65 | -0.46 | 0.22 | inactive

Part of the list above, set out differently.
gene	PubChem SID	mean z-score	z-score, replicate A	z-score, replicate B	z-score, replicate C	outcome
LCK (GeneID 3932)	SID56478529	0.42	0.47	0.14	0.65	inactive
ANP32CP (GeneID 23520)	SID134315350	-0.11	-0.07	-0.16	-0.11	inactive
SLA2 (GeneID 84174)	SID134323030	-1.54	-1.63	-1.52	-1.47	inactive
FAM149B1P1 (GeneID 388181)	SID134328597	-0.16	-0.07	-0.18	-0.22	inactive
LOC387897 (retired record) (GeneID 387897)	SID134328397	-0.12	0.16	0.02	-0.54	inactive
LOC133993 (retired record) (GeneID 133993)	SID134326075	-0.24	-0.35	-0.27	-0.11	inactive

More reagents:
gene | PubChem SID | mean z-score | z-score, replicate A | z-score, replicate B | z-score, replicate C | outcome
KRTAP4-11 (GeneID 653240) | SID134317870 | 0.32 | 0.08 | 0.48 | 0.41 | inactive
CHMP4A (GeneID 29082) | SID134324349 | -0.58 | -1.11 | -0.36 | -0.26 | inactive
GAGE2C (GeneID 2574) | SID134315624 | -0.37 | -0.42 | -0.48 | -0.21 | inactive
SERPINB7 (GeneID 8710) | SID134316881 | -0.69 | -0.48 | -0.95 | -0.65 | inactive
UBXN1 (GeneID 51035) | SID134313511 | 0.3 | 0.25 | 0.45 | 0.19 | inactive
NR1H2 (GeneID 7376) | SID134309863 | -1.38 | -1.44 | -1.27 | -1.41 | inactive
ERI3 (GeneID 79033) | SID134325166 | 0.34 | -0.05 | 0.34 | 0.74 | inactive
CATIP (GeneID 375307) | SID134326855 | -0.88 | -0.79 | -1.01 | -0.83 | inactive
PECR (GeneID 55825) | SID134314555 | 1.15 | 0.6 | 0.85 | 2.01 | inactive
PIGR (GeneID 5284) | SID134321642 | -1.3 | -1.33 | -1.44 | -1.15 | inactive
RPS4X (GeneID 6191) | SID134315496 | -2.93 | -3.04 | -3.02 | -2.73 | inactive
DHX9 (GeneID 1660) | SID134314641 | -0.22 | -0.22 | -0.17 | -0.27 | inactive
LRCH1 (GeneID 23143) | SID134318290 | 1.16 | 1.02 | 1.29 | 1.16 | inactive
TOMM22 (GeneID 56993) | SID134319896 | 0.1 | 0.3 | -0.08 | 0.08 | inactive
SNIP1 (GeneID 79753) | SID134320469 | 1.29 | 1 | 1.48 | 1.38 | inactive
PARP6 (GeneID 56965) | SID134318005 | -0.31 | -0.34 | -0.35 | -0.25 | inactive
SUSD3 (GeneID 203328) | SID134320787 | -0.03 | -0.14 | -0.05 | 0.11 | inactive
COL20A1 (GeneID 57642) | SID134325941 | -1.38 | -1.2 | -1.2 | -1.74 | inactive
CPLANE1 (GeneID 65250) | SID134318415 | -0.52 | -0.04 | -0.52 | -1 | inactive
PIK3R4 (GeneID 30849) | SID56478955 | 0.31 | 0.61 | 0.41 | -0.09 | inactive
CCDC185 (GeneID 164127) | SID134321132 | 0.9 | 0.76 | 0.95 | 0.99 | inactive
LINC00485 (GeneID 283432) | SID134328347 | 0.28 | 0.81 | 0 | 0.04 | inactive
OBP2A (GeneID 29991) | SID134314679 | -0.52 | -0.82 | -0.66 | -0.07 | inactive
CCR8 (GeneID 1237) | SID134310905 | 1.4 | 1.54 | 1.14 | 1.51 | inactive
TENM2 (GeneID 57451) | SID134326031 | 0.16 | 0.42 | 0.02 | 0.04 | inactive
PPIAP78 (GeneID 202227) | SID134326078 | 1.07 | 1.06 | 1.31 | 0.82 | inactive
USP17L24 (GeneID 728369) | SID134327480 | 1.13 | 1.45 | 0.75 | 1.19 | inactive
USP17L24 (GeneID 728369) | SID134327481 | 0.87 | 1.18 | 0.57 | 0.88 | inactive
USP17L24 (GeneID 728369) | SID134327483 | 0.91 | 1.26 | 0.88 | 0.59 | inactive
USP17L24 (GeneID 728369) | SID134327484 | 1.33 | 1.26 | 1.31 | 1.43 | inactive
USP17L24 (GeneID 728369) | SID134327485 | 0.48 | 0.22 | 0.58 | 0.63 | inactive
USP17L24 (GeneID 728369) | SID134327486 | -0.29 | 0.41 | -1.64 | 0.35 | inactive
